For this assay, the system named is SARS-CoV-2. The experiment in a line: microbe, parasite or virus in culture. Particulars: Severe acute respiratory syndrome coronavirus 2, 16HBE14o-, 24 h.

Molecules are shown by their SMILES.

Usually EC50 stands for the concentration at which the effect is half-maximal. A high value points to weaker potency. Consider `Cn1cc(-c2cc(-c3cc(Cl)cc(OCc4scnc4C(F)(F)F)c3)c(=O)n(-c3cccnc3)c2)c(=O)[nH]c1=O`, for which it took 1080 nM to reach a half-maximal effect (EC50). The figure for `Cn1cc(-c2cc(-c3cc(Cl)cc(OCCC(F)(F)F)c3)c(=O)n(-c3cccnc3)c2)c(=O)[nH]c1=O` is 820 nM.

The record behind these values is ChEMBL document CHEMBL4823308, “Optimization of Triarylpyridinone Inhibitors of the Main Protease of SARS-CoV-2 to Low-Nanomolar Antiviral Potency” (ACS Med Chem Lett, 2021).
